Anti-infective test results gathered from many reports (values: NIAID ChemDB through PubChem).

Common to all: toxicity to cultured cells; cells: H9; endpoint: CC50

Rows are shuffled and stem from different studies.

smiles	value
CCc1cc(NCc2nc3c(C)ccc(C)c3o2)c(=O)[nH]c1C	>60 µM
COc1cc2cc(Oc3ccc4ccc(=O)oc4c3)c(=O)oc2cc1O	22.7 µM
CC1(C)S[C@H]([C@H](NC(=O)Cc2ccccc2)C(=O)NCc2ccccc2)N[C@H]1C(=O)NCCNC(=O)[C@@H]1N[C@@H]([C@H](NC(=O)Cc2ccccc2)C(=O)NCc2ccccc2)SC1(C)C	>110 µM
COc1ccc(Cc2cc3cc(OC)c(OC)cc3c[nH+]2)cc1OC	10.1 µg/mL
C[C@@]12CCCC[C@]13O[C@@H]3C(=O)C(C#N)C2	33 µM
OCc1cc(OCc2ccccc2)c(OCc2ccccc2)c(OCc2ccccc2)c1-c1c(CO)cc(OCc2ccccc2)c(OCc2ccccc2)c1OCc1ccccc1	>120 µM
O=c1[nH]c(=O)n([C@H]2C[C@H](F)[C@@H](CO)O2)cc1Cl	>500 µM
CC(C)Nc1cccnc1N1CCN(C(=O)c2cc3cc(NS(C)(=O)=O)ccc3[nH]2)CC1	>100 µM
CC(=O)Oc1cc2sc(-c3ccccc3)cc(=O)c2cc1OC(C)=O	3 µg/mL
CC1(C)Oc2ccc3ccc(=O)oc3c2[C@@H](OC(=O)C23CCC(C)(C(=O)O2)C3(C)C)[C@H]1OC(=O)C12CCC(C)(C(=O)O1)C2(C)C	54.7 µM
Cc1cn([C@H]2C[C@H](N=[N+]=[N-])[C@@H](CO)O2)c(=O)[nH]c1=O	47 µM
CCCCCC[C@@H]([C@H](C)O)n1cnc2c(N)ncnc21	>50 µM
C[C@]12CC[C@H]3[C@@H](CC=C4NC(=O)CC[C@@]43C)[C@@H]1CC[C@@H]2C(=O)O	14.1 µM
O=c1[nH]c(=O)n([C@H]2C[C@H](F)[C@@H](CO)O2)cc1I	>500 µM
COc1cc2c(c(OC)c1OC)-c1ccc(OC)c(=O)cc1[C@@H](NC(=O)C(F)(F)F)CC2	0.0066 µM
OCc1cc(OCc2ccccc2)c(OCc2ccccc2)c(O)c1-c1c(CO)cc(OCc2ccccc2)c(OCc2ccccc2)c1O	13 µM
COc1ccc(Cc2c3ccc(OC)c(OC)c3cc[n+]2C)cc1OC	>100 µg/mL
C[C@]12CCCC[C@]13O[C@@H]3C(=O)C(C#N)C2	98.42 µM
Cc1cn([C@H]2C[C@H](N=[N+]=[N-])[C@@H](CO)O2)c(=O)[nH]c1=O	1875 µM
Cc1cc(=O)oc2c3c(ccc12)SC[C@H](OC(=O)C12CCC(C)(C(=O)O1)C2(C)C)[C@@H]3OC(=O)C12CCC(C)(C(=O)O1)C2(C)C	155 µM
Nc1cccc2sc(-c3ccccc3)cc(=O)c12	50 µg/mL
CC(C)(O)[C@H]1Cc2cc3ccc(=O)oc3cc2O1	>203.9 µM
O=C1OCC2OC(=O)c3cc(O)c(O)c(O)c3-c3c(O)c(O)c(O)c4c3C(=O)OC(C2OC(=O)c2cc(O)c(O)c(O)c2-c2c1cc(O)c(O)c2O)C1OC(=O)c2c-4c(O)c(O)c(O)c2[C@@H]1O	15 µM
C[C@]12CCC3C(CC[C@@]45O[C@@H]4C(=O)C(C(N)=O)C[C@]35C)C1CC[C@@H]2O	7.8 µM
O=C(Oc1cc([C@H]2Oc3cc(O)cc(O)c3C[C@H]2OC(=O)c2cc(O)c(O)c(O)c2)cc(O)c1O)c1cc(O)c(O)c(O)c1	40 µg/mL
CC(C)(O[C@@H]1O[C@H](CO)[C@@H](O)[C@H](O)[C@H]1O)[C@H]1Cc2cc3ccc(=O)oc3cc2O1	>122.5 µM
COc1cc(CO)c(Cc2nccc3cc(OC)c(OC)cc23)cc1OC	18.8 µg/mL
C/C=C(/C)C(=O)OC1c2cc3c(c(OC)c2-c2c(cc4c(c2OC)OCO4)C[C@H](C)[C@]1(C)O)OCO3	41 µg/mL
C[C@]12CCC3C(CC[C@@]45O[C@@H]4C(=O)C(S(=O)(=O)c4ccccc4)C[C@]35C)C1CC[C@@H]2O	4.16 µM
O=C1OC2[C@@H](CO)O[C@@H](OC(=O)c3cc(O)c(O)c(O)c3)[C@H](OC(=O)c3cc(O)c(O)c4c3[C@@H]3C1=CC(=O)C(O)(O)C3(O)O4)[C@H]2O	70 µM
O=C(O[C@@H]1Cc2c(O)cc(O)cc2O[C@@H]1c1cc(O)c(O)c(O)c1)c1cc(O)c(O)c(O)c1	8 µg/mL
Cc1ccc(-c2ccc3c(c2)C=C(C(=O)Nc2ccc(C[N+](C)(C)C4CCOCC4)cc2)CCC3)cc1	>10 µM
CCc1cn([C@H]2C[C@H](N=[N+]=[N-])[C@@H](CO)O2)c(=O)[nH]c1=O	75 µM
Cc1cn([C@H]2C[C@H](N=[N+]=[N-])[C@@H](CO)O2)c(=O)[nH]c1=O	>0.038 µM
O=C1CC2OC(O)C3OC(=O)c4cc(O)c(O)c(O)c4-c4c(cc(O)c(O)c4O)C(=O)OC3C2OC(=O)c2cc(O)c(O)c(O)c2-c2c1cc(O)c(O)c2O	15 µM
C=C[C@]1(C)COC(=O)[C@@]12O[C@]1(c3ccccc3)[C@@H]3C(C)=CC[C@H]([C@H](C)CCC=C(C)C)[C@@H]3[C@@H]1C2=O	>25 µg/mL
CC(=O)Oc1ccc2c(=O)cc(-c3ccccc3)sc2c1	45 µg/mL
COc1c2ccoc2cc2oc(=O)ccc12	208.3 µM
O=C(OCC1O[C@@H](O)C(O)(COC(=O)c2cc(O)c(O)c(O)c2)C1OC(=O)c1cc(O)c(O)c(O)c1)c1cc(O)c(O)c(O)c1	40 µM
N[C@H]1CCc2cc(O)c(O)c(O)c2-c2ccc(O)c(=O)cc21	50 µM
CC(=O)O[C@H]1CCC2C3CC[C@@]45O[C@@H]4C(=O)C(S(C)(=O)=O)C[C@]5(C)C3CC[C@@]21C	1.29 µM
COc1cc2cc[n+](C)c(Cc3ccc4c(c3)OCO4)c2cc1OC	22.4 µg/mL
Cc1cn([C@H]2C[C@H](N=[N+]=[N-])[C@@H](CO)O2)c(=O)[nH]c1=O	500 µg/mL
COc1cc2c(c(OC)c1OC)-c1ccc(=O)c(N(C)C)cc1[C@@H](N)CC2	>2.7 µM
O=C(O[C@@H]1O[C@@H]2COC(=O)c3cc(O)c(O)c(O)c3-c3c(cc(O)c(O)c3O)C(=O)O[C@H]([C@H]1OC(=O)c1cc(O)c(O)c(O)c1)[C@@H]2OC(=O)c1cc(O)c(O)c(O)c1)c1cc(O)c(O)c(O)c1	34 µM
CO[C@H]1O[C@@H](n2ccc(=O)[nH]c2=O)C[C@@H]1N=[N+]=[N-]	370 µM
COc1cc(C(=O)O[C@@H]2Cc3c(O)cc(O)cc3O[C@@H]2c2ccc(O)c(O)c2)cc(O)c1O	50 µg/mL
Nc1cccc2c(=O)cc(-c3ccccc3)sc12	15 µg/mL
O=C(O[C@H](Cc1c(O)cc(O)cc1O)C(c1cc(O)c(O)c(O)c1)c1c(O)cc2c(c1O)C[C@@H](OC(=O)c1cc(O)c(O)c(O)c1)[C@@H](c1cc(O)c(O)c(O)c1)O2)c1cc(O)c(O)c(O)c1	35 µg/mL
Cc1cn([C@H]2C[C@H](F)[C@@H](CO)O2)c(=O)[nH]c1=O	>0.013 µM
O=C(N[C@H]1CCc2cc(O)c(O)c(O)c2-c2ccc(O)c(=O)cc21)C(F)(F)F	23 µM
Nc1ccc2sc(-c3ccccc3)cc(=O)c2c1	7.5 µg/mL
COc1cc2c(c(OC)c1O)-c1ccc(O)c(=O)cc1[C@@H](NC(C)=O)CC2	0.27 µM
C/C=C(/C)C(=O)OC(C)(C)[C@@H]1Cc2c(ccc3ccc(=O)oc23)O1	13.1 µM
O=C(O[C@@H]1Cc2c(O)cc(O)cc2O[C@@H]1c1ccc(O)c(O)c1)c1cc(O)c(O)c(O)c1	>10 µg/mL
CCc1cc(NCc2nc3c(Cl)ccc(Cl)c3o2)c(=O)[nH]c1C	>60 µM
O=c1[nH]c(=O)n([C@H]2C[C@H](F)[C@@H](CO)O2)cc1Br	>500 µM
C[C@@]12CCCC[C@]13O[C@@H]3C(=O)C(C(N)=O)C2	26.24 µM
CCCc1nccc2cc(O)c(O)cc12	2.23 µg/mL

A second listing of 8 rows from above:

smiles,value
CC(=O)Oc1ccc2c(=O)cc(-c3ccccc3)sc2c1,45 µg/mL
CC(=O)Oc1cc2sc(-c3ccccc3)cc(=O)c2cc1OC(C)=O,3 µg/mL
CCc1cn([C@H]2C[C@H](N=[N+]=[N-])[C@@H](CO)O2)c(=O)[nH]c1=O,75 µM
COc1c2ccoc2cc2oc(=O)ccc12,208.3 µM
O=c1[nH]c(=O)n([C@H]2C[C@H](F)[C@@H](CO)O2)cc1Br,>500 µM
CC(C)(O[C@@H]1O[C@H](CO)[C@@H](O)[C@H](O)[C@H]1O)[C@H]1Cc2cc3ccc(=O)oc3cc2O1,>122.5 µM
O=C(OCC1O[C@@H](O)C(O)(COC(=O)c2cc(O)c(O)c(O)c2)C1OC(=O)c1cc(O)c(O)c(O)c1)c1cc(O)c(O)c(O)c1,40 µM
O=C(N[C@H]1CCc2cc(O)c(O)c(O)c2-c2ccc(O)c(=O)cc21)C(F)(F)F,23 µM

CCn: concentration that lowers growth or viability of the cells by n%.